According to PubChem BioAssay AID1800 (The Scripps Research Institute Molecular Screening Center, 2009):
Several values for one entry are separate records, joined by “and”; a condition that tells them apart may be missing. Identical values can stand only once. The list shows a part of the results, in another mix than the full data. Activity calls are given as the source filed them.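 The calls were made as follows: active = inhibition above the mean of all tested compounds plus 3 SD, set per campaign (cut at about 35% in these data); inactive = the rest.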

The compounds below were run on Hepatitis C virus NS3 helicase (assay: HCV NS3 DNA unwinding blockers – biochemical, Cy5 molecular beacon fluorescence, primary screen (AID 1800;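 also: 0% = DMSO wells and 100% = thioflavine S control wells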)). Settings: at 10.9 µM, active compounds read high.
Method in brief: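 assay system = NS3 helicase fragment of HCV | buffer or medium = MOPS pH 6.5, MgCl2, DTT, Tween20, BSA | timing = 60 min unwinding reaction at 25 °C after ATP addition | signal = Cy5 beacon fluorescence read at start and 1 h | read-out basis = % inhibition of unwinding | control set = low DMSO, high thioflavine S at 110 µM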

Structure (SMILES) | inhibition
CN(C)C1(CNC(=O)c2ccc(Cl)c(S(N)(=O)=O)c2)CCCCC1 | inactive: 7.53%
O=P(Nc1ccccn1)(c1ccc(Br)cc1)c1ccc(Br)cc1 | inactive: 1.08%
c1nnnn1CCn1cnnn1 | inactive: -0.66%
O=P(Nc1nccs1)(c1ccccc1)c1ccccc1 | inactive: 3.58%
CC(C)C(=O)NC(Sc1ccccc1)C(Cl)(Cl)Cl (centres undefined) | inactive: -0.66%
CN(C)C(=O)OCCc1n(C)cc[n+]1C | inactive: 0.54%
CC(C)=N/N=C(\N)N[N+](=O)[O-] | inactive: -13%
CC1CCN(C(=O)Oc2c(Cl)cc(Cl)c3cccnc23)CC1 | inactive: 23.4%
C[N+]1=C2C=CC=CC=C2SC12C([N+](=O)[O-])=CC([N+](=O)[O-])=C[C-]2[N+](=O)[O-] (centres undefined) | active: 56.7%
Nc1ccc([As](=O)(O)c2ccc(N)cc2)cc1 | inactive: 4.05%
CCN(/C(=N/P(=O)(N1CCOCC1)N1CCOCC1)N1CCOCC1)c1ccc(OC)cc1 | inactive: 5.82%
CC(=O)N1C2C3N(C(C)=O)C1C1N(C(C)=O)C(C(N1C(C)=O)N3C(C)=O)N2C(C)=O | inactive: 3.04%
O=[N+]([O-])c1cccc2n[nH]nc12 | inactive: 4.56%
O=[N+]([O-])c1cc([N+](=O)[O-])c(CCNc2ccccc2)c([N+](=O)[O-])c1 | inactive: 19.1%
CCc1nc2c(n1)c1c(non1O)c1c2no[n+]1[O-] | inactive: -2.14%
Cc1ccc(NP(=O)(Oc2ccccc2)Oc2ccccc2)nc1 | inactive: -2.83%
COc1ccc(C2=NCC(CBr)S2)cc1 (centres undefined) | inactive: -45.8%
O=[N+]([O-])c1cccc(NC2=NCC(CBr)S2)c1 (centres undefined) | inactive: 14.2%
O=C(O)CNc1ccc([As](=O)(O)O)cc1 | inactive: 1.19%
CC(C)(C)C(=O)NC(Sc1ccncn1)C(Cl)(Cl)Cl (centres undefined) | inactive: -0.9%
O=[N+]([O-])c1ncn(CCn2ncnc2[N+](=O)[O-])n1 | inactive: -6.67%
O=C(Nc1cc([As](=O)(O)O)ccc1O)c1ccccc1 | inactive: -0.69%

Structure (SMILES) | inhibition
CCN(N=Nc1nonc1N)c1nonc1N | inactive: -4.8%
Nc1cccc2ccc([As](=O)(O)O)cc12 | inactive: 0.91%
O=[N+]([O-])c1cc([N+](=O)[O-])c(CCN2CCOCC2)c([N+](=O)[O-])c1 | active: 36.9%
Cc1ccc(NP(=O)(Oc2ccccc2F)Oc2ccccc2F)nc1 | inactive: 5.48%
CCOP(=O)(Nc1ccccc1)OCC | inactive: 1.45% and inactive: -2.09%
Cc1cc(SC(NC(=O)c2ccc(F)cc2)C(Cl)(Cl)Cl)ncn1 (centres undefined) | inactive: 2.13%
O=C(O)c1ccccc1[As](=O)(O)O | inactive: 18.8%
CC(=O)Nc1ccc([As](=O)(O)O)cc1 | inactive: 12.2%
O=P(Nc1nc2ccc(Cl)cc2s1)(c1ccccc1)c1ccccc1 | inactive: -6.81%
CC(C)CC(=O)NC(Sc1ccc(Cl)cc1)C(Cl)(Cl)Cl (centres undefined) | inactive: -11.9%
Nc1cc(N)c2nonc2c1[N+](=O)[O-] | inactive: -14.7%
Cc1c2non([O-])c-2c(C)[n+](=O)[n+]1[O-] | inactive: -0.21%
O=C(NC(Sc1ccncn1)C(Cl)(Cl)Cl)c1ccccc1 (centres undefined) | inactive: -0.26%
Oc1ccccc1CNc1ccccn1 | inactive: -3.27%
Cc1ccc(OP(=O)(Nc2nccs2)Oc2ccc(C)cc2)cc1 | inactive: 7.05%
COc1ccccc1OP(=O)(Nc1ccc(C)cn1)Oc1ccccc1OC | inactive: 0.22%
Clc1ccc(Cl)c(NC2=NCC(CBr)S2)c1 (centres undefined) | inactive: -13%
CN1CCCC(OC(=O)C(c2ccccc2)c2ccccc2)C1 (centres undefined) | inactive: -5.38%
NC(=O)c1cc([N+](=O)[O-])cc([N+](=O)[O-])c1N | inactive: -4.94%
Cc1ccc(N/C(=N/P(=O)(N2CCOCC2)N2CCOCC2)N2CCOCC2)cc1 | inactive: 13.6%
COc1ccc(N/C(=N/P(=O)(N2CCOCC2)N2CCOCC2)N2CCOCC2)cc1 | inactive: -0.26%
COc1cc(I)ccc1[As](=O)(O)O | inactive: 1.73%

Structure (SMILES) | inhibition
COc1ccc2nc(NP(=O)(c3ccccc3)c3ccccc3)sc2c1 | inactive: -0.77%
Cc1cc(=O)[nH]c(N[N+](=O)[O-])n1 | inactive: -3.32%
O=C(OC1CN2CCC1CC2)C12CC3CC(CC(C3)C1)C2 (centres undefined) | inactive: 0.07%
Cc1c2c(nc3ccccc13)SC(C(Cl)Cl)C2 (centres undefined) | inactive: -1.19%
O=[N+]([O-])c1cc([N+](=O)[O-])c(-c2ccn[nH]2)s1 | inactive: 18.4%
CCN(CC)C(=S)SC(NC=O)C(Cl)(Cl)Cl (centres undefined) | inactive: -2.48%
CC(C)NC(=O)NP(=O)(Oc1ccccc1)Oc1ccccc1 | inactive: -0.98%
CC(C)c1ccc(OP(=O)(Nc2ccccn2)Oc2ccccc2F)cc1 (centres undefined) | inactive: 4.84%
ClCCSc1nnc(-c2cccnc2)o1 | inactive: -2.85%
Cc1ccc2nc3c(c(C)c2c1)CC(C(Cl)Cl)S3 (centres undefined) | inactive: 0.31%
Cc1ccc(OP(=O)(Nc2ccc([N+](=O)[O-])cn2)Oc2ccc(C)cc2)cc1 | inactive: -1.73%
O=[As](O)(c1ccc(O)cc1)c1ccccc1O | inactive: 18.6%
C[As](=O)(O)c1cccc(C(=O)O)c1 | inactive: -1.13%
O=[N+]([O-])c1ccc(Nc2ccc(Oc3ccc([N+](=O)[O-])cc3[N+](=O)[O-])cc2)c([N+](=O)[O-])c1 | inactive: 1.63%
Cc1cc(SC(NC=O)C(Cl)(Cl)Cl)ncn1 (centres undefined) | inactive: -8.65%
O=P(Nc1ccccn1)(c1cccc2ccccc12)c1cccc2ccccc12 | inactive: 1.16%
CCOC(=O)Nc1cccc([As](=O)(O)O)c1 | inactive: 1.96%
Cc1cc(SC(NC(=O)c2ccccc2)C(Cl)(Cl)Cl)nc(C(C)C)n1 (centres undefined) | inactive: 7.85%
CCCCOc1ccc(C(=O)NCC2(N3CCCCC3)CCCCC2)cc1OC | inactive: -5.65%
CCOC(=O)Nc1ccc([As](=O)(O)O)c(O)c1 | inactive: -7.19%
CCC(C)N(CC(C)C)C(=S)SC(NC(C)=O)C(Cl)(Cl)Cl (centres undefined) | inactive: -0.84%
CCOC(=O)c1ccc(NC(=O)C(C)(CCl)SC)cc1 (centres undefined) | inactive: -8.65%

Structure (SMILES) | inhibition
O=C(OC1CN2CCC1CC2)c1cccc([N+](=O)[O-])c1 (centres undefined) | inactive: -1.78%
O=C(Nc1ccncc1[N+](=O)[O-])c1ccc([N+](=O)[O-])cc1[N+](=O)[O-] | inactive: -2.93%
O=C(COc1ccccc1)OC1CN2CCC1CC2 (centres undefined) | inactive: 1.59%
COP1(=S)c2c(C)nn(CCC#N)c2N=C(c2ccc(F)cc2)N1C (centres undefined) | inactive: -11.3%
CC1(CBr)Cn2c(nc3ccccc3c2=O)S1 (centres undefined) | inactive: -2.49%
O=[As](O)(c1ccccc1Br)c1ccccc1Br | inactive: -0.21%
CN(C(=O)Cc1ccc(Cl)c(Cl)c1)[C@@H]1CCCC[C@H]1N1CCCC1 | inactive: -7.36%
CC(C)/C=N\N=C(\N)N[N+](=O)[O-] | inactive: -15.5%
CC(C)(C)C(=O)NC(Sc1ncccn1)C(Cl)(Cl)Cl (centres undefined) | inactive: 3.65%
Clc1n[nH]nc1-c1nn[nH][15n]1 | inactive: -6.27%
CCOP(=O)(Nc1ccc(C)cn1)OCC | inactive: 0.22%
CCOP(=O)(NC(=NC(C)c1ccccc1)NC(C)c1ccccc1)OCC (centres undefined) | inactive: 2.7%
CCC1=CC2Cc3nc4ccc(Cl)cc4c(N)c3C(C1)C2 (centres undefined) | inactive: -26.2%
O=P1(Nc2ccccn2)COc2ccccc2OC1 | inactive: -4.98%
O=P1(Nc2ccc(Br)cn2)COc2ccccc2OC1 | inactive: -0.86%
O=[As](O)(c1cccs1)c1cccs1 | inactive: 7.32%
Cc1ccc(OCC(=O)OC2CN3CCC2CC3)cc1 (centres undefined) | inactive: 5.6%
Nc1cccc([As](=O)(O)c2ccccc2)c1 | inactive: 5.17%
O=P1(Nc2ncccn2)COc2ccccc2OC1 | inactive: 2.52%
O=C(/C=C/c1ccccc1)OC1CN2CCC1CC2 (centres undefined) | inactive: 4.74%
CN(C)C1(CNC(=O)c2ccc(S(C)(=O)=O)cc2)CCCCC1 | inactive: -1.12%
Cc1ccc(C(=O)OC2CN3CCC2CC3)cc1 (centres undefined) | inactive: -10.3%

Structure (SMILES) | inhibition
CC1CCC(C(C)C)C(OP(=O)(Nc2ccccn2)c2ccccc2)C1 (centres undefined) | inactive: -10.7%
Cc1nn(-c2ccccc2)c2c1P(=O)(N1CCOCC1)N(C)C(c1ccccc1)=N2 (centres undefined) | inactive: -2.49%
O=[N+]([O-])c1ccc2c(c1)nnn2O | inactive: 4.96%
CCOP1(=S)c2c(C)nn(CCC#N)c2N=C(c2ccc(F)cc2)N1C (centres undefined) | inactive: 1.2%
O=C(O)COc1ccc([As](=O)(O)O)cc1[N+](=O)[O-] | inactive: 19%
Nc1ccccc1[As](=O)(O)c1ccccc1 | inactive: 9.3%
CS(=O)(=O)c1cc([N+](=O)[O-])c2no[n+]([O-])c2c1 | inactive: 4.06%
O=P(Nc1nccs1)(c1ccccc1)c1nc2ccccc2s1 (centres undefined) | inactive: -3.59%
O=P(Nc1nccs1)(Oc1ccccc1)Oc1ccccc1 | inactive: 12.7%
CCOP1(=S)c2c(C)nn(CCC#N)c2N=C(c2ccccc2F)N1C (centres undefined) | inactive: -3.94%
CCOP(=O)(Nc1cccc2ccccc12)OCC | inactive: -6.97%
COc1cc(C2NCCC3(OCCO3)C2(C)C)cc(OC)c1OC (centres undefined) | inactive: 6.87%
CCCOP(=S)(Nc1nc(N)cc(=O)[nH]1)OCCC | inactive: 8.73%
Nc1cccc2c([As](=O)(O)O)cccc12 | inactive: 26.8%
Cc1ccc(NCCc2c([N+](=O)[O-])cc([N+](=O)[O-])cc2[N+](=O)[O-])cc1 | inactive: 31.2%
O=[As](O)(c1cccc(O)c1)c1cccc(O)c1 | inactive: 6.97%
Cc1cccc(OCC(=O)OC2CN3CCC2CC3)c1 (centres undefined) | inactive: -2.73%
CS(=O)(=O)c1ccc(Cl)c(NC(=O)COC(=O)C(O)(c2ccccc2)c2ccccc2)c1 | inactive: -3.78%
COc1cc(C(=O)NCC2(N3CCOCC3)CCCCC2)cc(Cl)c1OC(C)C | inactive: 1.19%
O=[As](O)(O)c1cccnc1 | inactive: -4.27%
O=C(OC1CN2CCC1CC2)c1ccc(Cl)cc1 (centres undefined) | inactive: -9.57%
